Compound potency records, mixed from different reports. Data source: NIAID ChemDB in PubChem.

Common to all: toxicity to cultured cells; cells: MT-4; endpoint: CC50

Rows are shuffled and stem from different studies. CCn is the concentration with n% toxicity to the cells. Two numbers with a dash give a range or band.

SMILES | value
O=C1Nc2ccccc2/C1=N/n1c(-c2ccncc2)n[nH]c1=S | 11.3 µM
C=CCOCn1c(Cc2cc(C(F)(F)F)cc(C(F)(F)F)c2)c(CC)c(=O)[nH]c1=O | >100 µM
CSCCC(NS(=O)(=O)c1ccc(Cl)cc1)c1nnc(SCc2ccc(Br)cc2)o1 | >12.3 µg/mL
CC(CO)n1cnc2c(Cl)ncnc21 | >100 µM
CC(C)[C@H](NC(=O)OCc1ccccc1)C(=O)N[C@@H](Cc1ccccc1)[C@@H](O)[C@@H](NCc1ccccc1)C(=O)N[C@H](C(=O)NCc1nc2ccccc2[nH]1)C(C)C | 6 µM
O=c1[nH]c(=S)ccn1[C@H]1C[C@H](F)[C@@H](CO)O1 | 130 µM
C=C1CN(S(=O)(=O)c2ccc(C)cc2)CCCN(Cc2ccccc2)CCCN(S(=O)(=O)c2ccc(C)cc2)C1 | 39 µM
O=C1c2ccccc2N(Cc2ccccc2)S(=O)(=O)N1Cc1ccc(Cl)cc1 | 46.5–159.5 µM
[N-]=[N+]=N[C@H]1C[C@@H](CO)O[C@H]1n1cnc2c(NC3CCCC3)ncnc21 | >125 µg/mL
Cc1cn([C@H]2C[C@H](F)[C@@H](CO)O2)c(=O)[nH]c1=O | 11 µM
CC(C)(C)[Si](C)(C)OC[C@H]1O[C@@H](n2cc(F)c(=O)[nH]c2=O)[C@H](O[Si](C)(C)C(C)(C)C)C12OS(=O)(=O)C=C2N | 5 µM
C#CCOCN1c2ccccc2C(=O)N(Cc2ccccc2)S1(=O)=O | 26.2–29.6 µM
Cc1cn([C@H]2C[C@H](F)[C@@H](CO)O2)c(=O)nc1N | 190 µM
Cc1ccc(S(=O)(=O)NC(Cc2ccccc2)c2nnc(SCc3ccc(Cl)cc3)o2)cc1 | 99.4 µg/mL
CC1(C)C(N)=C(c2ccccc2)S(=O)(=O)N1Cc1ccccc1 | >125 µg/mL
N#C/C(=C/c1cccc(Br)c1)n1nnc2ccccc21 | 3 µM
CN(C)c1ccn([C@@H]2O[C@H](CO[Si](C)(C)C(C)(C)C)C3(OS(=O)(=O)C=C3N)[C@H]2O[Si](C)(C)C(C)(C)C)c(=O)n1 | >166 µM
CC(CO)n1cnc2c(N)ncnc21 | >100 µM
CCC(C)Sc1nc(Cc2ccccc2C(F)(F)F)cc(=O)[nH]1 | 200 µM
O=S(=O)(O)c1cc(Cl)cc(Cc2cc(Cl)cc(S(=O)(=O)O)c2O)c1O | >100 µg/mL
Nc1nc(=O)n([C@H]2C[C@H](O)[C@@H](CO)O2)cc1[N+](=O)[O-] | 38 µM
CCCN1C(=O)c2cccn2S(=O)(=O)c2ccc(Cl)cc21 | >300 µM
O=C1/C(=N\n2c(-c3ccncc3)n[nH]c2=S)c2cc(Cl)ccc2N1CN1CCOCC1 | 13.6 µM
COC(=N)c1cc(=O)[nH]c(=O)n1[C@@H]1O[C@H](CO[Si](C)(C)C(C)(C)C)C2(OS(=O)(=O)C=C2N)[C@H]1O[Si](C)(C)C(C)(C)C | 11 µM
C#CCOCn1c(Cc2cc(F)ccc2F)c(CC)c(=O)[nH]c1=O | >100 µM
CN[C@@H]1[C@H](O[C@@H]2OC[C@@H](O)[C@H](O)[C@H]2O)[C@@H](O)[C@H](O[C@H]2c3cc(C)c(C(=O)N[C@@H](C)C(=O)O)c(O)c3-c3c(cc4c(c3O)C(=N)c3cc(OC)cc(O)c3C4=O)[C@H]2O)O[C@@H]1C | >30 µg/mL
O=c1ccn2cnc3c(ncn3[C@@H]3O[C@H](CO)[C@@H](O)[C@H]3O)c2n1 | >1500 µM
Cc1ccc(S(=O)(=O)NC(Cc2ccccc2)c2nnc(SCc3ccc(F)cc3)o2)cc1 | 90.83 µg/mL
COc1cc(/C=C(/C#N)n2nc3ccccc3n2)cc(OC)c1OC | >100 µM
Cc1cc(C)cc(N2C(=O)CSC2c2c(Cl)cccc2Cl)c1 | 20.1 µM
CCC(Cc1cccc(NS(=O)(=O)c2ccc(C(F)(F)F)cn2)c1)c1cc(O)c(C(c2ccccc2)C2CC2)c(=O)o1 | 71.4 µM
Cc1cn(N2C[C@H](CO)[C@H]2CO)c(=O)[nH]c1=O | >100 µg/mL
CC(C)=CCN1C(=O)c2cccn2S(=O)(=O)c2ccc(Cl)cc21 | >300 µM
CN(C)CN1C(=O)/C(=N\n2c(-c3ccncc3)n[nH]c2=S)c2cc(Cl)ccc21 | 12.2 µM
CCc1cccc(N2C(=O)CSC2c2c(F)cccc2F)c1 | 39.14 µM
O=C(NCc1ccc(F)cc1)c1nc(N2CCCCS2(=O)=O)c2cccnc2c1O | 5 µM
CCC(C)Sc1nc(Cc2ccccc2)cc(=O)[nH]1 | 150 µM
CCn1c(C)c(C(=O)OC)c(C(=O)OC)c1Cc1ccccc1 | 69 µM
N#C[C@]1(CO)O[C@@H](n2cnc3c(N)nc(N)nc32)C[C@@H]1O | >0.034 µM
CC1(C)C(N)=CS(=O)(=O)N1Cc1cccc(Cl)c1 | >125 µg/mL
O=C1Nc2ccc(Cl)cc2/C1=N/n1c(-c2ccncc2)n[nH]c1=S | 10.8 µM
CC1(C)C(N)=C(c2ccccc2)S(=O)(=O)N1Cc1cccc(Cl)c1 | >125 µg/mL
Cc1cn([C@H]2C=C[C@@H](OCP(=O)(O)O)O2)c(=O)[nH]c1=O | >600 µM
CC(C)=CCN1C(=O)c2cccn2S(=O)(=O)c2cc(Cl)ccc21 | >300 µM
Nc1c(-c2nccc(=O)[nH]2)ncn1[C@@H]1O[C@H](CO)[C@@H](O)[C@H]1O | >1500 µM
C=Cc1cn([C@H]2C[C@H](F)[C@@H](CO)O2)c(=O)[nH]c1=O | 6 µM
CC(C)[C@H](NC(=O)[C@H](NCc1ccccc1)[C@H](O)[C@H](Cc1ccccc1)NC(=O)[C@@H](NC(=O)OCc1ccccc1)C(C)(C)C)C(=O)NCc1ccccc1 | 6.2 µM
CC1=C(N)C(C)(Cc2ccccc2)OS1(=O)=O | >125 µg/mL
O=C1c2ccccc2N(COCc2ccccc2)S(=O)(=O)N1Cc1ccccc1 | 18.6–19.8 µM
C=C(C)COCn1c(Cc2cc(F)ccc2F)c(CC)c(=O)[nH]c1=O | 56 µM
COc1c(Cl)cc(C(=CCCCCN[C@H]2CC[C@]3(C)C4CC[C@@]5(C)C(CC[C@@H]5C(C)CCCC(C)C)C4CC[C@H]3C2)c2cc(Cl)c(OC)c(C(=O)O)c2)cc1C(=O)O | >150 µM
N#C/C(=C\c1ccc(I)cc1)n1nnc2ccccc21 | 1.4 µM
O=C(NCCc1ccccc1)Nc1nc2ccccc2s1 | >100 µg/mL
CC(C)[C@H](NC(=O)OCc1ccccc1)C(=O)N[C@@H](Cc1ccccc1)[C@@H](O)[C@@H](NCc1ccc(Br)cc1)C(=O)N[C@H](C(=O)NCc1nc2ccccc2[nH]1)C(C)C | 8.3 µM
CC(C)(C)[Si](C)(C)OC[C@H]1O[C@@H](n2cc(C(F)(F)F)c(=O)[nH]c2=O)[C@H](O[Si](C)(C)C(C)(C)C)C12OS(=O)(=O)C=C2N | 14 µM
COc1c(Cl)cc(C(=CCCCCN(C(=O)C=C(c2cc(Cl)c(OC)c(C(=O)O)c2)c2cc(Cl)c(OC)c(C(=O)O)c2)[C@H]2CC[C@]3(C)C4CC[C@@]5(C)C(CC[C@@H]5C(C)CCCC(C)C)C4CC[C@H]3C2)c2cc(Cl)c(OC)c(C(=O)O)c2)cc1C(=O)O | 33 µM
O=C1/C(=N\n2c(-c3ccncc3)n[nH]c2=S)c2cc(Br)ccc2N1CN1CCOCC1 | 10.9 µM
COc1cc2c(cc1Cc1cccc(Cl)c1F)c(=O)c(C(=O)O)cn2[C@H](CO)C(C)C | 24 µM
O=C1/C(=N\n2c(-c3ccncc3)n[nH]c2=S)c2cc(Br)ccc2N1CN1CCCCC1 | 11.5 µM
COc1c(Cl)cc(C(=CCNC(=O)C[C@H]2CC[C@]3(C)C4CC[C@@]5(C)C(CC[C@@H]5CC(=O)NCC=C(c5cc(Cl)c(OC)c(C(=O)O)c5)c5cc(Cl)c(OC)c(C(=O)O)c5)C4CC[C@H]3C2)c2cc(Cl)c(OC)c(C(=O)O)c2)cc1C(=O)O | >125 µM
N#C/C(=C\c1ccc(F)cc1F)n1nnc2ccccc21 | 38 µM
Cc1cn([C@H]2C[C@H](N=[N+]=[N-])[C@@H](CCO)O2)c(=O)[nH]c1=O | >200 µg/mL
CCCCCCC(C)[C@H]1CCC2C3CC[C@H]4C[C@@H](CCC=C(c5cc(Cl)c(O)c(C(=O)O)c5)c5cc(Cl)c(O)c(C(=O)O)c5)CC[C@]4(C)C3CC[C@@]21C | >125 µM
S=C(NCCc1ccccc1)Nc1nccs1 | ~100 µg/mL
CC(C)(C)[Si](C)(C)OC[C@H]1O[C@@H](n2cc(I)c(=O)[nH]c2=O)[C@H](O[Si](C)(C)C(C)(C)C)C12OS(=O)(=O)C=C2N | 12 µM
CC(C)(CS(=O)(=O)[O-])[NH2+]C(=O)C(CC(F)(OC(F)(F)C(F)(OC(F)(F)C(F)(OC(F)(F)C(F)(F)C(F)(F)F)C(F)(F)F)C(F)(F)F)C(F)(F)F)C(F)(OC(F)(F)C(F)(OC(F)(F)C(F)(OC(F)(F)C(F)(F)C(F)(F)F)C(F)(F)F)C(F)(F)F)C(F)(F)F | >50 µg/mL
CCc1c(C)[nH]c(=O)c(N(C)C)c1Cc1cc(C)cc(C)c1 | >1 µM
Cc1cn([C@H]2C=C[C@@H](CO)O2)c(=O)[nH]c1=O | >100 µM
COc1cccc(/C=C(\C#N)n2nnc3ccccc32)c1 | 4.7 µM
Nc1nc2c(ncn2[C@H]2CC[C@@H](CO)O2)c(=O)[nH]1 | 486 µM
O=C1c2ccccc2N(Cc2ccccc2)S(=O)(=O)N1COCc1ccccc1 | 35.8–45 µM
O=C1CSC(c2c(F)cccc2Cl)N1c1cccc([N+](=O)[O-])c1 | 32.03 µM
CCOCn1c(Cc2ccc(Cl)cc2)c(CC)c(=O)[nH]c1=O | >100 µM
Cc1cn([C@@H]2O[C@H](CO)[C@@H](C#N)[C@@H]2O)c(=O)[nH]c1=O | >500 µM
O=C1c2ccccc2N(COCc2ccccc2)S(=O)(=O)N1COCc1ccccc1 | 22.3–23.7 µM
O=C(NCc1ccc(Cl)c(Cl)c1)c1cnc(C(=O)NO)c(O)c1CO | 50 µM
O=C1[C@@H](Cc2ccccc2)NC(=S)N1c1ccccc1 | >100 µg/mL

Again, the opening 10 rows:

O=C1Nc2ccccc2/C1=N/n1c(-c2ccncc2)n[nH]c1=S ; value: 11.3 µM
C=CCOCn1c(Cc2cc(C(F)(F)F)cc(C(F)(F)F)c2)c(CC)c(=O)[nH]c1=O ; value: >100 µM
CSCCC(NS(=O)(=O)c1ccc(Cl)cc1)c1nnc(SCc2ccc(Br)cc2)o1 ; value: >12.3 µg/mL
CC(CO)n1cnc2c(Cl)ncnc21 ; value: >100 µM
CC(C)[C@H](NC(=O)OCc1ccccc1)C(=O)N[C@@H](Cc1ccccc1)[C@@H](O)[C@@H](NCc1ccccc1)C(=O)N[C@H](C(=O)NCc1nc2ccccc2[nH]1)C(C)C ; value: 6 µM
O=c1[nH]c(=S)ccn1[C@H]1C[C@H](F)[C@@H](CO)O1 ; value: 130 µM
C=C1CN(S(=O)(=O)c2ccc(C)cc2)CCCN(Cc2ccccc2)CCCN(S(=O)(=O)c2ccc(C)cc2)C1 ; value: 39 µM
O=C1c2ccccc2N(Cc2ccccc2)S(=O)(=O)N1Cc1ccc(Cl)cc1 ; value: 46.5–159.5 µM
[N-]=[N+]=N[C@H]1C[C@@H](CO)O[C@H]1n1cnc2c(NC3CCCC3)ncnc21 ; value: >125 µg/mL
Cc1cn([C@H]2C[C@H](F)[C@@H](CO)O2)c(=O)[nH]c1=O ; value: 11 µM